PubChem BioAssay AID624099 | ICCB-Longwood – 2012
Assay: 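Host factors E2 relies on to silence an HPV18 LCR reporter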 (primary screen). Cells: human C33A cervical carcinoma cells (HPV-negative) stably expressing BPV1 E2 and an HPV18 LCR luciferase reporter. Knock-down reagent: siRNA pool against human genes, 40 nM. Timing: 72 h. Detection: 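HPV18 LCR reporter light per well, converted to plate-wise z-scores that exclude control wells, and averaged over triplicate plates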. Reading the numbers: mean z-score and z-score: higher = stronger reporter signal, weaker E2 silencing. Call rule: 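Hit if mean z-score reaches 2 and two or more of three replicate z-scores also reach 2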.
Shown is an unselected part of about 21,000 reagents. 497 of all reagents (2.4%) count as active. 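Higher z means weaker E2 silencing; only reporter increases were scored, and knock-downs that hurt cell survival may mask genuine repressor factors.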 A number with no mark means an inactive call. Reagent sequences are not shown.

no.	target	mean z-score	z-score, replicate A	z-score, replicate B	z-score, replicate C
1	TMEM207	1.88	1.86	1.7	2.06
2	RCOR3	-0.06	0.18	-0.44	0.06
3	UBAP1L	0.15	0.28	0.18	-0.01
4	TRPT1	-0.86	-1.31	-0.57	-0.71
5	DUX3	0.34	0.67		0.02
6	SARM1	-0.96	-0.62	-1.33	-0.95
7	SGPP2	-0.1	-0.11	-0.02	-0.18
8	NRSN2	0.38	0.47	0.18	0.49
9	KLRG2	-2.02	-1.96	-1.74	-2.35
10	TSPYL1	-0.02	0.11	-0.23	0.08
11	CD96	2.05 (active)	2.04	2.3	1.82
12	ARHGDIA	0.44	0.37	0.82	0.14
13	LRRC57	0.68	0.91	0.41	0.71

6 consecutive reagents already listed, quoted:
no.	target	mean z-score	z-score, replicate A	z-score, replicate B	z-score, replicate C
2	RCOR3	-0.06	0.18	-0.44	0.06
3	UBAP1L	0.15	0.28	0.18	-0.01
4	TRPT1	-0.86	-1.31	-0.57	-0.71
5	DUX3	0.34	0.67		0.02
6	SARM1	-0.96	-0.62	-1.33	-0.95
7	SGPP2	-0.1	-0.11	-0.02	-0.18

More results:
no.	target	mean z-score	z-score, replicate A	z-score, replicate B	z-score, replicate C
14	RFLNB	-1.01	-1.06	-0.86	-1.12
15	WDR35	0.78	0.77	0.73	0.85
16	COG5	2.72 (active)	2.79	2.68	2.69
17	RPS2P40	-1.48	-0.37	-1.72	-2.34
18	C4orf50	-0.65	-0.63	-0.52	-0.8
19	INTS13	0.85	0.53	1.16	
20	SERPINC1	-0.45	-0.03	-0.47	-0.85
21	PMAIP1	0.88	0.76	1.22	0.65
22	SLC9A2	0.31	0.5	0.39	0.04
23	CHST8	-0.29	-0.07	-0.2	-0.59
24	RAB5IF	-0.89	-1.04	-0.97	-0.67
25	ZC3H6	-0.07	0.06	-0.08	-0.18
26	ANKRD54	-0.58	-0.71	-0.38	-0.64
27	LRCH1	1.16	1.02	1.29	1.16
28	TTK	0.05	-0.03	0.16	0.03
29	INTS5	1.49	1.04	1.62	1.82
30	BRWD3	0.79	0.9	1.14	0.34
31	CNTRL	0.27	0.35	0.27	0.19
32	LINC00326	-1.29	-0.86	-1.2	-1.81
33	LBX2	-1.22	-1.35	-1.17	-1.14
34	ARB2A	0.07	-0.2	0.16	0.25
35	ITPKB	1.93	1.77	1.84	2.18
36	C9orf40	0.39	0.43	0.11	0.64
37	OR4A5	-0.2	-0.09	-0.6	0.1
38	ATP10A	-0.74	-0.93	-0.78	-0.52
39	SMARCD2	-0.9	-0.86	-0.87	-0.96
